Pooled drug test results. Numbers come from NIAID ChemDB, via PubChem.

Common to all: host cell toxicity; read-out: CC50

CCn is the concentration with n% toxicity to the cells.

| smiles | cells | read by | result |
|---|---|---|---|
| Nc1ccn([C@@H]2O[C@H](CO)[C@@H](O)[C@H]2F)c(=O)n1 | CEF | MTT | >100 µM |
| Cc1cn([C@H]2C[C@H](N=[N+]=[N-])[C@@H](COP(=O)([O-])OP(=O)([O-])OCC3O[C@@H](n4cc(C)c(=O)[nH]c4=S)C[C@@H]3F)O2)c(=O)[nH]c1=O | CEM-T4 | MTT | >100 µM |
| Cc1cc(O)c(C(=O)/C=C/C=C/c2ccc(N(C)C)cc2)c(=O)o1 | HCT116 | MTT | >10 µM |
| C=C1CN(S(=O)(=O)c2ccc(C)cc2)CCCN(C(=O)OCC)CCCN(S(=O)(=O)c2ccc(C)cc2)C1 | SupT1 | trypan blue / propidium iodide | >75 µM |
| O=C(N/C(C(=O)N1CCCCC1)=C(/Cl)c1ccccc1)c1ccccc1 | HepAD38 | - | >81 µM |
| CN(C(=O)[C@H](Cc1ccccc1)NC(=O)CNC(=O)c1ccccc1)c1ccccc1 | TZM-gfp | XTT | >50 µM |
| O=C(Nc1ccc(Cl)cc1)C(=O)NC1CC2(CCCCC2)NC2(CCCCC2)C1 | PM1 | WST | 120 µM |
| NC1=Nc2ccc(Cl)cc2C1(O)Cc1ccccc1 | Erythrocyte | - | >147 µM |
| C=C1CN(S(=O)(=O)c2ccc(C)cc2)CCCN(C(C)C)CCCN(S(=O)(=O)c2ccc(C)cc2)C1 | SupT1 | trypan blue / propidium iodide | 75 µM |
| O=C(CNC(=O)c1ccccc1)N[C@@H](Cc1ccccc1)C(=O)N1CCC[C@H]1C(=O)Nc1ccccc1 | TZM-gfp | XTT | >50 µM |
| COc1cc(NC(C)CCCN)c2nc(C(F)(F)F)cc(C)c2c1-c1ccc(C(F)(F)F)cc1 | RAW 264.7 | - | 10.1 µg/mL |
| C=C1CN(S(=O)(=O)c2ccc(C)cc2)CCCN(C(C)CC)CCCN(S(=O)(=O)c2ccc(C)cc2)C1 | SupT1 | trypan blue / propidium iodide | 43.1 µM |
| CNC(=O)c1ccc(-n2c([C@H](O)C(C)C)nc3c(c2=O)C[C@@H](C)N(C(=O)c2ccc(Br)c(C(F)(F)F)c2)C3)cc1 | HepG2 | luminescence | >50 µM |
| Cc1cn(CC(=O)N[C@@H](Cc2ccccc2)C(=O)N(C)c2ccccc2)c(=O)[nH]c1=O | TZM-gfp | XTT | >50 µM |
| Cn1cc(C(=O)NCc2ccc(Cl)cc2)c(=O)c2cc(CN3CCOCC3)ccc21 | 10T1/2 | - | >100 µM |
| OC[C@H]1CC(n2c(NC3CC3)nc3cc(Cl)c(Cl)cc32)[C@H](O)[C@@H]1O | MOLT-3 | ATP | >100 µM |
| CCOC(=O)CCCCCOc1cccc(CN(C(=O)c2ccc(-c3cn(S(=O)(=O)c4ccccc4)c4ccccc34)cc2)C(C)C)c1 | BJ | - | >20 µM |
| CC(=O)N[C@H]1C(O[C@@H]2[C@@H](O)[C@H](O)[C@@H](O)C[C@H]2OC(=O)[C@H]2C[C@H](O)[C@@]3(O)[C@@H](C2)O[C@@]2(C[C@H](OC(=O)c4ccc(O)cc4)[C@H](C)CO2)[C@@H]3O)O[C@H](CO)[C@@H](O)[C@@H]1O | HepG2 2.2.15 | MTT | 19.2 µM |
| Cc1ccc(NC(=O)C(=O)NC2CCNC3(CCCCC3)C2)cc1 | PM1 | WST | 115 µM |
| CCCCCCCCCCCCCCCCCCOP(=O)(O)OC[C@H]1O[C@@H](N2CCc3c(-c4ccccc4)ncnc32)[C@@H](O)C1O | Human fibroblasts BJ | MTT | >50 µM |
| CCc1cn([C@@H]2O[C@H](CO)[C@@H](O)[C@@H]2O)c(=S)nc1N | RPMI8226 | - | >264.9 µM |
| CO[C@@H]1[C@H](O)[C@@H](CO)O[C@H]1n1ccc(N)nc1=O | HBI10A | - | >100 µM |
| CC(C)N(Cc1ccccc1OCC(=O)O)C(=O)c1ccc(-c2ccc3c(c2)OCO3)cc1 | HepG2 | - | >20 µM |
| CO[C@H](c1ccc(O)cc1)C1NC(=O)[C@H](CCC(N)=O)N(C)C(=O)[C@H](CC(C)C)NC(=O)[C@@H](CCCN=C(N)N)CC(=O)C([C@@H](C)O)CC(=O)[C@@H](NC(=O)C(NC(=O)[C@H](O)[C@H](O)[C@H](CCCN=C(N)N)NC(=O)C(C)NC(=O)[C@H](C)[C@H](O)[C@H](C)CC(C)C)[C@@H](C)[C@@H](C)C(N)=O)[C@@H](C)OC(=O)[C@H](C)N(C)C1=O | Lymphomonocytes | MTT | 0.01 µg/mL |
| O=c1c2ncn(COC(CO)CO)c2nc2[nH]c(-c3ccc(C(F)(F)F)cc3)cn12 | OST TK- | - | >500 µg/mL |
| COc1ccc(-n2cc(Cn3nc(-c4ccccc4)c4c3CCN(C(=O)Nc3ccccc3)C4)nn2)cc1 | RAW 264.7 | MTT | 340 µM |
| COc1ccc(-c2[nH]c3nc4c(ncn4COCCO)c(=O)n3c2C)cc1 | OST TK- | - | 62 µg/mL |
| Cc1ccnc2c1NC(=O)c1cccnc1N2C1CC1 | HuT-78 | MTT / microscopy | >7.5 µM |
| NC1=Nc2ccc(Cl)cc2C1(O)c1cccc2ccccc12 | Erythrocyte | - | >129 µM |
| CCOC(=O)CCCCCOc1cccc(CN(C(=O)c2ccc(-c3cc(OC)cc(OC)c3)cc2)C(C)C)c1 | HEK 293 | - | >20 µM |
| Cc1cc(O)c(C(=O)/C=C/c2ccc(F)cc2)c(=O)o1 | HCT116 | MTT | >10 µM |
| O[C@@H]1[C@H](O)CO[C@H]1n1c(NC2CC2)nc2cc(Cl)c(Cl)cc21 | MOLT-3 | ATP | >100 µM |
| C=Cc1cn([C@@H]2O[C@H](CO)[C@@H](O)[C@@H]2O)c(=S)[nH]c1=O | RPMI8226 | - | >266.3 µM |
| COC(=O)[C@H]1C[C@H](O)[C@@]2(O)[C@@H](C1)O[C@@]1(C[C@H](OC(=O)c3ccc(O)cc3)[C@H](C)CO1)[C@@H]2O | HepG2 2.2.15 | MTT | 104 µM |
| Nc1ccn(C[C@@H](CO)OCP(=O)(O)O)c(=O)n1 | HS68 | - | 50 µg/mL |
| Fc1cccc(F)c1-c1nc2ccn(Cc3ccc(Cl)c(Cl)c3)cc-2n1 | MDBK | - | 20 µg/mL |
| CN(C)c1cccc2c(S(=O)(=O)Nc3ccc(NC(=O)C(C)(C)C=O)cc3)cccc12 | Human embryonic lung fibroblasts | - | 79 µM |
| CO[C@H]1O[C@H](Cn2c(C)c(C)c(=O)[nH]c2=O)[C@H](O)[C@H]1OCc1ccccc1F | MOLT 4/C8 | - | 30 µM |
| CCOC(=O)CCCCCOc1cccc(CN(C(=O)c2ccc(-c3cccc(O)c3)cc2)C(C)C)c1 | HEK 293 | - | >20 µM |
| OCCOCn1c(Br)nc2c(Cl)cc(Cl)cc21 | KB | - | >100 µM |
| NCCCCC(=O)NCCN1CCC(NC(=O)C(=O)Nc2ccc(Cl)cc2)CC12CCCCC2 | PM1 | WST | 142 µM |
| c1ccc(-c2ccc(Cn3ccc4nc(-c5ccccc5)nc-4c3)cc2)cc1 | MDBK | - | >46 µg/mL |
| Cc1cc(O)c(C(=O)/C=C/C=C2/N(C)c3ccccc3C2(C)C)c(=O)o1 | HCT116 | MTT | >10 µM |
| N=C(N)N1CCC(NC(=O)C(=O)Nc2ccc(Cl)cc2)CC12CCCCC2 | PM1 | WST | 48 µM |
| CO[C@@]12C[C@@H](C(=O)O[C@@H]3C[C@H](O)[C@@H](O)[C@H](O)[C@H]3OC3O[C@H](CO)[C@@H](O)[C@H](O)[C@H]3O)C[C@H](O)[C@]1(O)[C@@H](O)[C@]1(C[C@H](OC(=O)c3ccc(O)cc3)[C@H](C)CO1)O2 | HepG2 2.2.15 | MTT | 165.5 µM |
| O=c1[nH]c(=S)n([C@@H]2O[C@H](CO)[C@@H](O)[C@@H]2O)cc1CCO | RPMI8226 | - | >244.8 µM |
| Cc1cn(CC(=O)N[C@@H](Cc2ccccc2)C(=O)N(C)c2cccc(Cl)c2)c(=O)[nH]c1=O | TZM-gfp | XTT | >50 µM |
| OCC(CO)OCn1c(=S)[nH]c2cc(Cl)c(Cl)cc21 | KB | - | >100 µM |
| Cc1cc(O)c(C(=O)/C=C/c2ccc(Br)cc2)c(=O)o1 | HCT116 | MTT | >10 µM |
| O=c1c2ncn(COCCO)c2nc2[nH]c(-c3ccc(F)cc3)cn12 | OST TK- | - | 92 µg/mL |
| COc1cnc(OC)c(C2(O)C(N)=Nc3ccc(Cl)cc32)c1 | Dermal fibroblast | - | >195 µM |
| C=Cc1cn([C@H]2C[C@H](O)[C@@H](CO)O2)c(=S)[nH]c1=O | RPMI8226 | - | >290.3 µM |
| Nc1nc2c(ncn2[C@@H]2O[C@H](CO)[C@@H](O)[C@H]2F)c(=O)[nH]1 | CEF | MTT | 17 µM |
| CC(C)N(Cc1cccc(OCCCCCC(=O)OC(=O)O)c1)C(=O)c1ccc(-c2ccoc2)cc1 | BJ | - | >20 µM |
| CNC(=O)c1ccc(-n2c(NC(C)C)nc3c(c2=O)C[C@@H](C)N(C(=O)c2ccc(Br)c(C(F)(F)F)c2)C3)cc1 | HepG2 | luminescence | >50 µM |
| COc1ncc2ncn([C@@H]3O[C@H](CO)[C@@H](O)[C@H]3F)c2n1 | CEF | MTT | >100 µM |
| Cc1nnc(-c2cccc(-c3ccc(C(=O)N(Cc4cccc(OCCCCCC(=O)OC(=O)O)c4)C(C)C)cc3)c2)o1 | HEK 293 | - | >20 µM |
| CO[C@H]1O[C@H](Cn2cc(I)c(=O)[nH]c2=O)[C@H](O)[C@H]1OCc1ccccc1F | MOLT 4/C8 | - | 126 µM |
| C=C1CN(S(=O)(=O)c2ccc(C)cc2)CCCN(CC(C)C)CCCN(S(=O)(=O)c2ccc(C)cc2)C1 | SupT1 | trypan blue / propidium iodide | >75 µM |
| CNC(=O)c1ccc(-n2c(NC(C)C)nc3c(c2=O)C[C@@H](C)N(C(=O)c2ccc(C(F)(F)F)c(Cl)c2)C3)cc1 | HepG2 | luminescence | >50 µM |
| OCC(CO)OCn1c(SCc2ccccc2)nc2cc(Cl)c(Cl)cc21 | KB | - | >100 µM |
| FC(F)(F)c1cccc(Cn2ccc3nc(-c4ccccc4)nc-3c2)c1 | MDBK | - | >100 µg/mL |
| CC(C)NC(=O)C1CCC(n2c(NC(C)C)nc3c(c2=O)C[C@@H](C)N(C(=O)c2ccc(Cl)c(C(F)(F)F)c2)C3)CC1 | HepG2 | luminescence | >50 µM |
| C[C@H]1O[C@@H](n2c(NC3CC3)nc3cc(Cl)c(Cl)cc32)[C@H](O)[C@@H]1O | MOLT-3 | ATP | >100 µM |
| N#CCN1CCC(NC(=O)C(=O)Nc2ccc(Cl)cc2)CC12CCCCC2 | PM1 | WST | 47 µM |
| CCc1cn([C@H]2C[C@H](O)[C@@H](CO)O2)c(=S)[nH]c1=O | RPMI8226 | - | >288.6 µM |
| Nc1nc2c(=O)[nH]c(Cl)nc2n1[C@@H]1O[C@H](CO)[C@@H](O)[C@H]1F | CEF | MTT | 26 µM |
| CNC(=O)C1CCC(n2c(NC(C)C)nc3c(c2=O)C[C@@H](C)N(C(=O)c2ccc(Br)c(C(F)(F)F)c2)C3)CC1 | HepG2 | luminescence | 21.3 µM |
| COc1cc(C)c2c(-c3ccc(C(F)(F)F)cc3)c(OC)cc(NC(C)CCCN)c2n1 | RAW 264.7 | - | 1.2 µg/mL |
| CNC(=O)CCn1c(NC(C)C)nc2c(c1=O)C[C@@H](C)N(C(=O)c1ccc(Cl)c(C(F)(F)F)c1)C2 | HepG2 | luminescence | >50 µM |
| Nc1nc(=S)n([C@@H]2O[C@H](CO)[C@@H](O)[C@@H]2O)cc1/C=C/c1ccccc1 | RPMI8226 | - | >258.7 µM |
| Cc1cc(O)c(C(=O)/C=C/c2ccc(Br)s2)c(=O)o1 | HCT116 | MTT | >10 µM |
| CNC(=O)c1c(Cl)c(-n2c(CC(C)C)nc3c(c2=O)C[C@@H](C)N(C(=O)c2ccc(Br)c(C(F)(F)F)c2)C3)nn1C | HepG2 | luminescence | 30 µM |
| CN(C)c1cccc2c(S(=O)(=O)Nc3ccc(NC(=O)C(C)(C)CF)cc3)cccc12 | Human embryonic lung fibroblasts | - | 56 µM |
| Brc1ccc(Cn2ccc3nc(CCc4ccccc4)nc-3c2)cc1 | MDBK | - | 17 µg/mL |
| CC(C)(CF)C(=O)Nc1ccc(NS(=O)(=O)c2cccc3ccccc23)cc1 | Mouse fibroblast cell lines | - | 28.7 µM |
| Fc1cccc(F)c1Cn1ccc2nc(-c3ccccc3)nc-2c1 | MDBK | - | 46 µg/mL |
| Nc1nc2c(ncn2C[C@@H]2CC[C@@H](P(=O)(O)O)O2)c(=O)[nH]1 | 3T3-L1 | - | 5.4 µg/mL |
| CCCc1cn([C@H]2C[C@H](O)[C@@H](CO)O2)c(=S)nc1N | RPMI8226 | - | >277.4 µM |
| CNc1nc2c(Cl)c(Cl)ccc2n1COCCO | HFF | visual reading | >100 µM |
| Cc1cn([C@H]2C[C@H](F)C(COP(=O)([O-])OP(=O)([O-])OC[C@H]3O[C@@H](n4cc(C)c(=S)[nH]c4=O)C[C@@H]3F)O2)c(=O)[nH]c1=S | CEM-T4 | MTT | >100 µM |

Rows are shuffled and stem from different studies. Blank or dashed fields: not listed here.